Pooled drug test results. Numbers come from NIAID ChemDB, via PubChem.

All rows: tests in culture; organism: HIV-1; measure: EC50

Lines come from different laboratories, so protocols vary. ECn: concentration that inhibits the pathogen or its effect by n%. Two numbers with a dash give a range or band. Blank or dashed fields: not listed here.

structure	method	strain	mutations	cell line	result
O=C(O)c1cc(-n2cccc2)ccc1Cl	luciferase / cell fusion	BCF02 R5 GROUP O	-	PBMC/5.25M7	46.4 µM
N#CC(=C1CCN(C(=O)C(=O)c2c[nH]c3c(NC(=O)Nc4ccc(C(=O)O)cc4)cccc23)CC1)c1ccccc1	luciferase / reporter gene	-	-	HeLa	<1 µM
CCN1c2ncc(CCOc3ccc(-c4ccc(CC(=O)O)c(F)c4)cc3C)cc2C(=O)N(C)c2cccnc21	p24	-	RT-K103N Y181C	C8166	<0.01 µM
Cc1ncc(-c2ccc(N(C)CCOc3ccccc3)nc2)c(N2CCC(C)(C)CC2)c1[C@H](OC(C)(C)C)C(=O)O	luminescence	NL4-3	-	MT-2	0.0016 µM
CC(C)CN(CC(O)CN(CC(C)C)S(=O)(=O)c1ccccc1)S(=O)(=O)c1ccccc1	p24	IIIB	-	CEM	<1 µM
Nc1nc(NC2CC2)c2ncn([C@H]3C=C[C@@H](CO)C3)c2n1	recombinant virus assay	Clinical isolate	D67N/T69N/K70R/A98G/M184V/G190S/T215F/K219Q	MT-2	0.748 µM
O=C(c1ccccc1)N(CCc1ccccc1)C[C@H](O)CN(CC1CCCC1)S(=O)(=O)c1nccs1	p24	IIIB	-	CEM	<1 µM
CCN1c2ncc(CCOc3ccc(-c4cccc(CC(=O)O)c4)cc3C)cc2C(=O)N(C)c2cccnc21	p24	IIIB	-	C8166	<0.01 µM
CC(C)C1=C2[C@H]3CC[C@@H]4[C@@]5(C)CC[C@H](OC(=O)[C@H]6C[C@@H](C(=O)O)C6(C)C)C(C)(C)[C@@H]5CC[C@@]4(C)[C@]3(C)CC[C@@]2(CC(=O)N[C@H](C)c2ccccc2)CC1=O	p24 / ELISA	92HT599	-	MT-2	<1 µM
Cc1cc(C)cc(Cc2c(I)c(=O)[nH]c(=O)n2COCc2ccccc2)c1	p24 / ELISA	A17	Y181C	MT-4	0.021 µM
C[C@H]1[C@H](O)[C@@H](C)/C=C/C=C/C=C/C=C/C=C/C=C/C=C/[C@H](O[C@@H]2O[C@H](C)[C@@H](O)[C@H](N)[C@@H]2O)C[C@@H]2O[C@](O)(C[C@@H](O)C[C@@H](O)CC[C@H](O)[C@@H](O)C[C@@H](O)CC(=O)O[C@H]1C)C[C@H](O)[C@H]2C(=O)O	p24 / RT activity	RU132 CLADE G R5 (NSI)	-	PBMC	1.8 µM
Cc1cc(S(N)(=O)=O)ccc1NC(=O)COc1ccc(Cl)cc1C(=O)c1cccc(C#N)c1	β-galactosidase	HXB2	RT-V108I	HeLa + HELA CD4+	<0.01 µM
Cc1ncc(-c2ccc(N(C)CCOc3ccc(Cl)cc3F)nc2)c(N2CCC(C)(C)CC2)c1[C@H](OC(C)(C)C)C(=O)O	luminescence	NL4-3	-	MT-2	0.0025 µM
CCN1CCN(CCNCC[C@@]23CC[C@]4(C)[C@H](CC[C@@H]5[C@@]6(C)CC[C@H](OC(=O)[C@H]7C[C@@H](C(=O)O)C7(C)C)C(C)(C)[C@@H]6CC[C@]54C)C2=C(C(C)C)C(=O)C3)CC1	p24 / ELISA	92HT599	-	MT-2	<1 µM
CC(C)=CCOc1cc(NC(=S)c2ccsc2C)ccc1Cl	cytopathic effect / XTT	4xAZT	-	CEM + CEM-SS	0.006 µM
CCN1c2ncc(CCOc3ccc(-c4ccn(CC(=O)O)n4)cc3)cc2C(=O)N(C)c2cccnc21	p24	IIIB	-	C8166	>0.05 µM
CC(C)C1=C2[C@H]3CC[C@@H]4[C@@]5(C)CC[C@H](OC(=O)[C@H]6C[C@@H](C(=O)O)C6(C)C)C(C)(C)[C@@H]5CC[C@@]4(C)[C@]3(C)CC[C@@]2([C@@H](O)CNCc2ccc(Cl)cc2)CC1=O	p24 / ELISA	92HT599	-	MT-2	<1 µM
Cc1cc(C#N)cc(C(=O)c2cc(Cl)ccc2OCC(=O)Nc2ccc(OCCCN3CC=CC3)cc2C)c1	β-galactosidase	HXB2	RT-P225H	HeLa + HELA CD4+	<0.01 µM
CC(C)CN(C[C@@H](O)CN(CCc1ccccc1)C(=O)O[C@H]1CCOC1)S(=O)(=O)c1cccc(N)c1	p24	IIIB	-	CEM	<0.1 µM
CN1c2ccccc2C2C1C=C(C#N)C(=O)N2c1ccc([N+](=O)[O-])cc1	GFP / fluorescence	83-2/B1-T20r	-	HeLa	0.03 µM
Cc1ncc(-c2ccc(OC[C@](C)(O)c3ccccc3)cn2)c(N2CCC(C)(C)CC2)c1[C@H](OC(C)(C)C)C(=O)O	luminescence	NL4-3	-	MT-2	0.009 µM
CCN1c2ncc(CCOc3ccc(-c4ccc(CC(=O)O)cc4F)cc3C)cc2C(=O)N(C)c2cccnc21	p24	-	RT-K103N Y181C	C8166	0.01–0.05 µM
Cc1cn(-c2ccc(CNCC[C@@]34CC[C@]5(C)[C@H](CC[C@@H]6[C@@]7(C)CC[C@H](OC(=O)[C@H]8C[C@@H](C(=O)O)C8(C)C)C(C)(C)[C@@H]7CC[C@]65C)C3=C(C(C)C)C(=O)C4)cc2)cn1	p24 / ELISA	92HT599	-	MT-2	<1 µM
CCN1c2ncc(CCOc3ccc(-c4cc[n+]([O-])cc4)cc3)cc2C(=O)N(C)c2cccnc21	p24	IIIB	-	C8166	<0.01 µM
N#CC1=CC2Nc3ccccc3C2N(c2ccc([N+](=O)[O-])cc2)C1=O	GFP / fluorescence	A-92UG029	-	HeLa	1 µM
C[C@H](Cn1cnc2c(N)ncnc21)OCP(=O)(O)O	recombinant virus assay	Clinical isolate	M41L/D67N/K70R/Y181C/G190A/L210W/T215Y/K219E	MT-2	0.0148 µM
CCOC(=O)c1ccccc1NC(=O)Nc1cccc2c(C(=O)C(=O)N3CCC(=C(C#N)c4ccccc4)CC3)c[nH]c12	luciferase / reporter gene	-	-	HeLa	<1 µM
Nc1ccn([C@H]2CC[C@@H](CO)O2)c(=O)n1	β-galactosidase	NL4-3	V182I	-	0.686 µM
Cc1ncc(-c2ccc(NCCOc3ccc(F)cc3C(=O)O)cn2)c(N2CCC(C)(C)CC2)c1[C@H](OC(C)(C)C)C(=O)O	luminescence	NL4-3	-	MT-2	6.31 µM
Cc1nc2ccccc2c(-c2cc(F)c3c(c2C)CCCO3)c1[C@H](OC(C)(C)C)C(=O)O	luminescence	NL4-3	E92Q/N155H	MT-4	0.016 µM
CC(C)(C)OC(=O)NC(Cc1ccccc1)C(=O)C(=O)C(=O)N(CC1CCCC1)S(=O)(=O)c1ccccc1	p24	IIIB	-	CEM	<1 µM
CC(C)=CCOc1cc(NC(=S)c2ccoc2C)ccc1Cl	cytopathic effect / XTT	Diphenyl sulfone-resistant (RT-Y181C)	RT-Y181C	CEM + CEM-SS	0.9 µM
COCCOCCOCCOc1ccc(-c2cnc(C)c([C@H](OC(C)(C)C)C(=O)O)c2N2CCC(C)(C)CC2)nc1	luminescence	NL4-3	-	MT-2	0.0566 µM
Cc1cc(S(N)(=O)=O)ccc1NC(=O)COc1ccc(Cl)cc1C(=O)c1cccc(C#N)n1	β-galactosidase	HXB2	RT-P225H	HeLa + HELA CD4+	<0.01 µM
COC(=O)c1ccccc1NC(=O)Nc1cccc2c(C(=O)C(=O)N3CCN(C(=O)c4ccccc4)C[C@H]3C)c[nH]c12	luciferase / reporter gene	-	-	HeLa	<1 µM
Cc1ncc(-c2ccc(OCCOC3CCC3)cn2)c(N2CCC(C)(C)CC2)c1[C@H](OC(C)(C)C)C(=O)O	luminescence	NL4-3	-	MT-2	0.0012 µM
Cc1cc(C#N)cc(C(=O)c2cc(Cl)ccc2OCC(=O)Nc2cnc(S(N)(=O)=O)cc2C)c1	cytopathic effect / propidium iodide	IIIB	-	MT-4	<0.01 µM
CCC[C@@]1(CCc2ccccc2)CC(O)=C([C@H](CC)c2cccc(NS(=O)(=O)c3ccc(C(F)(F)F)cn3)c2)C(=O)O1	reporter gene	T21217	L10F I47V L90M	MT-4	11800 nM
COc1ccc(S(=O)(=O)N(CC(C)C)C[C@@H](O)CCN2CCCC[C@H]2C(=O)NC(C)(C)C)cc1	p24	IIIB	-	CEM	<1 µM
[2H]C([2H])(NC[C@H](O)[C@@]12CC[C@]3(C)[C@H](CC[C@@H]4[C@@]5(C)CC[C@H](OC(=O)[C@H]6C[C@@H](C(=O)O)C6(C)C)C(C)(C)[C@@H]5CC[C@]43C)C1=C(C(C)C)C(=O)C2)c1ccccc1	p24 / ELISA	92HT599	-	MT-2	<1 µM
CCCc1cc(=O)oc2c3c(c4c(c12)OC(C)(C)CC4)O[C@@H](C)[C@H](C)[C@@H]3O	XTT	UC38-resistant (RT Y181C)	RT-Y181C	CEM + CEM-SS	0.1 µM
CCNC(=NCCCN(C)C)Nc1cccc2c(C(=O)C(=O)N3CCN(C(=O)c4ccccc4)C[C@H]3C)c[nH]c12	luciferase / reporter gene	-	-	HeLa	<1 µM
CCC(=O)c1ccc(F)c([C@@H]2C[C@@H]2NC(=O)Nc2ccc(C#N)cn2)c1O	β-galactosidase / luminescence	LAI	NNRTI-resistant (RT G190S)	TZM-bl	0.00009 µM
C[C@@H]1CCO[C@H]2Cn3cc(C(=O)NCc4ccc(F)cc4F)c(=O)c(O)c3C(=O)N12	luciferase / luminescence	-	L74M/V75I	TZM-bl	0.0012 µM
Cc1ncc(-c2ccc(OCC3=CCCC3)cn2)c(N2CCC(C)(C)CC2)c1[C@H](OC(C)(C)C)C(=O)O	luminescence	NL4-3	-	MT-2	0.0028 µM
Cc1cc2[nH]cnc2cc1NC(=O)COc1ccc(Cl)cc1C(=O)c1cc(F)cc(C(F)(F)F)c1	β-galactosidase	HXB2	RT-E138K	HeLa + HELA CD4+	<0.01 µM
CC(C)CN(CCC(O)CN1CCCC[C@H]1C(=O)NC(C)(C)C)S(=O)(=O)c1ccccc1	p24	IIIB	-	CEM	<1 µM
CCc1cc(C#N)cc(C(=O)c2cc(Cl)ccc2OCC(=O)Nc2ccc(S(N)(=O)=O)cc2C)c1	β-galactosidase	HXB2	RT-K103N P225H	HeLa + HELA CD4+	<0.01 µM
CCN1c2ncc(CCOc3ccc(NC(=O)c4ccccc4C(=O)O)cc3C)cc2C(=O)N(C)c2cccnc21	p24	IIIB	-	C8166	<0.01 µM
CC(C)C1=C2[C@H]3CC[C@@H]4[C@@]5(C)CC[C@H](OC(=O)[C@H]6C[C@@H](C(=O)O)C6(C)C)C(C)(C)[C@@H]5CC[C@@]4(C)[C@]3(C)CC[C@@]2([C@@H](O)CNCC(C)(C)NC(=O)c2ncc[nH]2)CC1=O	p24 / ELISA	92HT599	-	MT-2	<1 µM
CC1(C)CC=C(c2cn(-c3nccc(C(=O)NC4CCC(N5CC6CCC(C5)O6)CC4)n3)c3ccc(F)c([C@H](OC(C)(C)C)C(=O)O)c23)CC1	luminescence	NL4-3	-	MT-4	0.0036 µM

3 of the rows above, restated:

structure | method | strain | mutations | cell line | result
CC(C)C1=C2[C@H]3CC[C@@H]4[C@@]5(C)CC[C@H](OC(=O)[C@H]6C[C@@H](C(=O)O)C6(C)C)C(C)(C)[C@@H]5CC[C@@]4(C)[C@]3(C)CC[C@@]2([C@@H](O)CNCc2ccc(Cl)cc2)CC1=O | p24 / ELISA | 92HT599 | - | MT-2 | <1 µM
CN1c2ccccc2C2C1C=C(C#N)C(=O)N2c1ccc([N+](=O)[O-])cc1 | GFP / fluorescence | 83-2/B1-T20r | - | HeLa | 0.03 µM
O=C(c1ccccc1)N(CCc1ccccc1)C[C@H](O)CN(CC1CCCC1)S(=O)(=O)c1nccs1 | p24 | IIIB | - | CEM | <1 µM